Consider one molecule from PubChem BioAssay AID1259311 (ICCB-Longwood Screening Facility, Harvard Medical School, 2017).

A word on the inhibition: it is how much of the control response was suppressed.

This is a selection; strong and weak results do not stand in their true shares. Calls of active or inactive are those of the source. Cut-off read from the data, not from the text of the source: active = inhibition above about 85%; inactive = the rest.

A short description of this experiment: growth inhibition of S. aureus RN4220, primary screen, OD600 (AID 1259311).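 Note: plate controls were untreated cells for no effect and reference antibiotic for full effect.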 The following applies: OD600, 16 h, hits give high values.
As for `O=P1(Nc2ccc(Br)cn2)COc2ccccc2OC1`, the inhibition is inactive: 10.1%.
